# Data as given in ChEMBL document CHEMBL4364245 (Eur J Med Chem, 2019).
# Amino acid sequences for entries named in this document (tags omitted).
# UniProt P03471, whole entry, looked up: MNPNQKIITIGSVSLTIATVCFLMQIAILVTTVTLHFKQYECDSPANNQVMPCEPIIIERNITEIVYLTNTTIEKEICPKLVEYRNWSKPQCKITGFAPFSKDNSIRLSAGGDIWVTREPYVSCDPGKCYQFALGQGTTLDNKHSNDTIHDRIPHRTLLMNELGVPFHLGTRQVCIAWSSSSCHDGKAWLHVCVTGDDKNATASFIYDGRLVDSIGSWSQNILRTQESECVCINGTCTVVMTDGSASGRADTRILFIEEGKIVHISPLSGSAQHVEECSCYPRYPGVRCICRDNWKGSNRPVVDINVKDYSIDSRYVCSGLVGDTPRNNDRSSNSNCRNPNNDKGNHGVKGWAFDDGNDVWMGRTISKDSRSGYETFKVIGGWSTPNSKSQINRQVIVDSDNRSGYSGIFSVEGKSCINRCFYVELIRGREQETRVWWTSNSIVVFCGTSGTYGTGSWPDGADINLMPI
# Biological target: Neuraminidase (Influenza A virus (A/Memphis/1/1971(H3N2)), UniProt P03471)
row,Structure (SMILES),IC50 [µM]
1,CCC(CC)O[C@@H]1C=C(C(=O)NCc2ccc(F)cc2)C[C@H](NCc2ccc(-c3ccccc3)cc2)[C@H]1NC(C)=O,> 100
2,CCC(CC)O[C@@H]1C=C(C(=O)N[C@@H](C(=O)O)C(C)C)C[C@H](NCc2ccc(N(CC)CC)cc2)[C@H]1NC(C)=O,> 100
3,CCC(CC)O[C@@H]1C=C(C(=O)NCc2ccc(F)cc2)C[C@H](NCc2ccc(Sc3ccccc3)cc2)[C@H]1NC(C)=O,> 100
4,CCC(CC)O[C@@H]1C=C(C(=O)N[C@@H](C(=O)O)C(C)C)C[C@H](NCc2ccc(-c3ccccc3)cc2)[C@H]1NC(C)=O,> 100
5,CCC(CC)O[C@@H]1C=C(C(=O)NCc2ccc(Cl)cc2)C[C@H](NCc2ccc(-c3ccccc3)cc2)[C@H]1NC(C)=O,> 100
6,CCC(CC)O[C@@H]1C=C(C(=O)NCc2ccc(C(=O)O)cc2)C[C@H](NCc2ccc(SC)cc2)[C@H]1NC(C)=O,> 100
7,CCC(CC)O[C@@H]1C=C(C(=O)NCc2ccc(F)cc2)C[C@H](NCc2ccc(N(CC)CC)cc2)[C@H]1NC(C)=O,> 100
8,CCC(CC)O[C@@H]1C=C(C(=O)NCc2ccc(Cl)cc2)C[C@H](NCc2ccc(SC)cc2)[C@H]1NC(C)=O,> 100
9,CCC(CC)O[C@@H]1C=C(C(=O)NCc2ccc(C(=O)O)cc2)C[C@H](NCc2ccc(-c3ccccc3)cc2)[C@H]1NC(C)=O,> 100
10,CCC(CC)O[C@@H]1C=C(C(=O)N[C@@H](C(=O)O)C(C)C)C[C@H](NCc2ccc(SC)cc2)[C@H]1NC(C)=O,> 100
11,CCC(CC)O[C@@H]1C=C(C(=O)NCc2ccc(Cl)cc2)C[C@H](NCc2ccc(N(CC)CC)cc2)[C@H]1NC(C)=O,> 100
12,CCC(CC)O[C@@H]1C=C(C(=O)NCc2ccc(Cl)cc2)C[C@H](NCc2ccc(Sc3ccccc3)cc2)[C@H]1NC(C)=O,> 100
13,CCC(CC)O[C@@H]1C=C(C(=O)NCc2ccc(F)cc2)C[C@H](NCc2ccc(SC)cc2)[C@H]1NC(C)=O,> 100
